PubChem BioAssay AID624099, ICCB-Longwood | 2012

Purpose: 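Host factors E2 relies on to silence an HPV18 LCR reporter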 (primary screen)
Cell system: human C33A cervical carcinoma cells (HPV-negative) stably expressing BPV1 E2 and an HPV18 LCR luciferase reporter
Reagents: siRNA pool against human genes, 40 nM
Duration: 72 h
Measurement: 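Per-well luciferase luminescence, z-scored on each plate against the plate mean and SD with control wells left out, then averaged across three replicate plates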
Scale: mean z-score and z-score: higher = stronger reporter signal, weaker E2 silencing
Active means: 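Mean z ≥ 2 together with z ≥ 2 in two or more of the three replicates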
The whole screen tested about 21,000 reagents; shown is a part drawn at random. In the full data, 497 (2.4%) were called active. 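Higher z means weaker E2 silencing; only reporter increases were scored, and knock-downs that hurt cell survival may mask genuine repressor factors.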

Gene,mean z-score,"z-score, replicate A","z-score, replicate B","z-score, replicate C",Outcome
TRIM65,-0.32,-0.39,-0.07,-0.49,inactive
IER3IP1,-0.74,-0.47,-0.99,-0.76,inactive
MORC4,-0.41,-0.8,-0.46,0.04,inactive
SEC14L2,-0.88,-1.06,-0.87,-0.73,inactive
MYCNOS,0.27,0.21,0.28,0.33,inactive
LINC-PINT,1.56,1.69,1.15,1.85,inactive
AP1M2,0.26,0.36,0.14,0.29,inactive
PCDHGB4,-0.23,-0.32,-0.33,-0.05,inactive
ELP4,0.63,0.77,0.72,0.4,inactive
THBS3,-0.82,-0.35,-1.07,-1.03,inactive
CLEC12A,0.23,-0.04,0.53,0.21,inactive
NDUFB6,-0.39,-0.56,-0.13,-0.48,inactive
NDUFA9,-1.15,-1.16,-0.94,-1.37,inactive
SERPINB12,-0.72,-0.59,-0.71,-0.85,inactive
CCDC86,-1.28,-0.98,-1.37,-1.49,inactive
VPS37D,-1.31,-1.44,-1.25,-1.23,inactive
CERKL,-1.18,-0.85,-1.46,-1.24,inactive
PIP5KL1,-0.86,-0.42,-1.01,-1.14,inactive
PIF1,0.26,0.63,-0.06,0.2,inactive
ING2,0,0.18,-0.03,-0.15,inactive
WFDC5,0,-0.05,0.19,-0.14,inactive
MLKL,0.57,0.68,0.6,0.42,inactive
TMEM52B,0.67,0.61,1.28,0.12,inactive
LOC388277 (retired record),0.22,0.11,0.14,0.42,inactive
RANGAP1,-0.46,-0.66,-0.5,-0.23,inactive
DYNC1LI1,0.5,0.4,0.57,0.55,inactive

Continued, starting with the last 2 of the part before.
Gene,mean z-score,"z-score, replicate A","z-score, replicate B","z-score, replicate C",Outcome
RANGAP1,-0.46,-0.66,-0.5,-0.23,inactive
DYNC1LI1,0.5,0.4,0.57,0.55,inactive
GINM1,0.27,0.57,0.22,0.02,inactive
ADAM15,-0.65,-0.43,-0.85,-0.67,inactive
GTF2I,-2.25,-1.96,-2.49,-2.31,inactive
MRPS2,-0.28,-0.16,-0.28,-0.4,inactive
NFASC,1.06,1.18,0.93,1.09,inactive
PLK1,-0.89,-1.06,-0.77,-0.85,inactive
KCTD16,0.66,0.6,0.66,0.74,inactive
ROR2,0.46,0.6,0.45,0.33,inactive
FBLN7,2.4,2.28,2.57,2.35,active
OBSL1,0.87,0.62,0.77,1.24,inactive
ZNF830,-0.69,-0.82,-1.22,-0.04,inactive
LOC347512 (retired record),1.11,1,1.27,1.07,inactive
DCDC2,-0.35,-0.09,-0.77,-0.21,inactive
LOC401210 (retired record),0.23,0.14,-0.02,0.58,inactive
HS6ST3,0.05,0.25,-0.1,0,inactive
C22orf46P,-0.1,0.65,-0.54,-0.41,inactive
CRYGA,-0.34,-0.03,-0.42,-0.57,inactive
ABCB1,-0.25,-0.39,0.03,-0.4,inactive
PWWP3A,0.29,0.59,0.06,0.21,inactive
ATXN2L,0.07,0.16,-0.03,0.08,inactive
GNMT,-0.05,-0.04,0.02,-0.14,inactive
PARP9,0.46,0.09,0.7,0.58,inactive
CLEC10A,-0.7,-0.36,-0.78,-0.95,inactive
CSN2,-0.69,-0.57,-1.05,-0.45,inactive
DUSP12,-0.5,-0.52,-0.64,-0.35,inactive
LIG3,-0.78,-0.65,-0.91,-0.79,inactive
BPY2B,-0.49,-0.32,-0.52,-0.64,inactive
KIF27P2,1.66,1.95,1.98,1.06,inactive
SACK1E,-0.97,-0.86,-1.22,-0.82,inactive
HARBI1,0.54,0.4,0.3,0.91,inactive
RGS14,0.11,0,0.25,0.09,inactive
